# Where a SMILES comes first, the peptide text is derived from it. Where no end group is shown, it is not given here.
# Test: Circular dichroism, alpha-helical content
# Assay type: physicochemical
# Details: 225 nm; for Alpha helix (%), Buffer: 10 mM Tris buffer pH 7.4, 10 μM peptide; for Alpha helix (%), Micelles: 16:0 lyso-phosphatidylglycerol micelles, 1:1 peptide-to-micelle ratio
Compound,"Alpha helix (%), Buffer [%]","Alpha helix (%), Micelles [%]"
KRIVQRIKDFLR [KR-12],12,52
CC[C@H](C)[C@@H]1NC(=O)[C@H](CCCCN)NC(=O)[C@H](CC(=O)O)NC(=O)[C@H](Cc2ccccc2)NC(=O)[C@H](CC(C)C)NC(=O)[C@H](CCCNC(=N)N)NC(=O)CNC(=O)CNC(=O)[C@H](CS)NC(=O)CNC(=O)[C@H](CCCCN)NC(=O)[C@H](CCCNC(=N)N)NC(=O)[C@H]([C@@H](C)CC)NC(=O)[C@H](C(C)C)NC(=O)[C@H](CCC(N)=O)NC(=O)[C@H](CCCNC(=N)N)NC(=O)[C@H]([C@@H](C)CC)NC(=O)[C@H](CCCCN)NC(=O)[C@H](CC(=O)O)NC(=O)[C@H](Cc2ccccc2)NC(=O)[C@H](CC(C)C)NC(=O)[C@H](CCCNC(=N)N)NC(=O)CNC(=O)CNC(=O)[C@H](C)NC(=O)CNC(=O)[C@H](CCCCN)NC(=O)[C@H](CCCNC(=N)N)NC(=O)[C@H]([C@@H](C)CC)NC(=O)[C@H](C(C)C)NC(=O)[C@H](CCC(N)=O)NC(=O)[C@H](CCCNC(=N)N)NC1=O [Peptide 2retro-cd4] (cyclo(CGGRLFDKIRQVIRKGAGGRLFDKIRQVIRKG)),30,53

# Reference: publication PMC7046553, “Backbone Cyclization and Dimerization of LL-37-Derived Peptides Enhance Antimicrobial Activity and Proteolytic Stability” (Frontiers in Microbiology, 2020)
